From patent publication US10029984B2, “Mono- or di-substituted indole derivatives as dengue viral replication inhibitors” (Janssen Pharmaceuticals, Inc., priority 2015, dated 2018)

Columns and labels:
Assay type in all cases: cell-based, Dengue virus
DENV-2 16681 strain = experiment: DENV-2 antiviral assay (eGFP-labeled virus in Vero cells); conditions: SI=CC50/EC50, DENV-2 antiviral assay
Summary of the method: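 Vero cells were pre-plated with compound overnight, then infected with eGFP-labeled DENV-2 16681 at MOI 0.5 and incubated 3 days at 37 °C. eGFP fluorescence read by automated microscopy; 9-point 4-fold dilutions (25 μM–0.00038 μM final) in quadruplicate, EC50 by linear interpolation versus virus and cell controls.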

DENV-1 strain TC974#666 = experiment: Tetravalent RT-qPCR assay Protocol A, serotype 1; conditions: RT-qPCR serotype 1 TC974#666
Method: (§1) The antiviral activity of the compounds of the invention was tested against DENV-1 strain TC974#666 (NCPV; Table 6), DENV-2 strain 16681 (Table 7), DENV-3 strain H87 (NCPV; Table 8) and DENV-4 strains H241 (NCPV; Table 9) in a RT-qPCR assay. Therefore, Vero cells were infected with either DENV-1, or -2, or -3, or -4 in the presence or absence of test compounds. At day 3 post-infection, the cells were lysed and cell lysates were used to prepare cDNA of both a viral target (the 3′UTR of DENV; table 2) and a cellular reference gene (β-actin, table 2). Subsequently, a duplex real time PCR was performed on a Lightcycler480 instrument. The generated Cp value is inversely proportional to the amount of RNA expression of these targets. Inhibition of DENV replication by a test compound result in a shift of Cp's for the 3′UTR gene. On the other hand, if a test compound is toxic to the cells, a similar effect on β-actin expression will be observed. The comparative ΔΔCp method is used to calculate EC50, which is based on the relative gene expression of the target gene (3′UTR) normalized with the cellular housekeeping gene (β-actin).
(§2) The culture medium consisted of minimal essential medium supplemented with 2% of heat-inactivated fetal calf serum, 0.04% gentamycin (50 mg/mL) and 2 mM of L-glutamine. Vero cells, obtained from ECACC, were suspended in culture medium and 75 μL/well was added in 96-well plates (10000 cells/well), which already contain the antiviral compounds. Typically, these plates contain a 4-fold serial dilution of 9 dilution steps of the test compound at 200 times the final concentration in 100% DMSO (500 nL; final concentration range: 25 μM-0.00038 μM). In addition, each plate contains wells which are assigned as virus controls (containing cells and virus in the absence of compound) and cell controls (containing cells in the absence of virus and compound). Once the cells were added in the plates, the plates were incubated in a fully humidified incubator (37° C., 5% CO2) until the next day. Then, DENV-1 strain TC974#666 at an MOI of 0.6, DENV-2 strain 16681 at an MOI of 0.01, DENV-3 strain H87 at an MOI of 1.0 and DENV-4 strains H241 at an MOI of 0.2 and SG/06K2270DK1/2005 at an MOI of 0.16, were added. Therefore, 25 μL of virus suspension was added to all the wells containing test compound and to the wells assigned as virus control. In parallel, 25 μL of culture medium was added to the cell controls. Next, the plates were incubated for 3 days in a fully humidified incubator (37° C., 5% CO2). After 3 days, the supernatant was removed from the wells and the cells were washed twice with ice-cold PBS (˜100 μL). The cell pellets within the 96-well plates were stored at −80° C. for at least 1 day. Next, RNA was extracted using the Cells-to-CT™ lysis kit, according to the manufacture's guideline (Applied Biosystems). The cell lysates can be stored at −80° C. or immediately used in the reverse transcription step.
(§3) In preparation of the reverse transcription step, mix A (table 3A) was prepared and 7.57 μL/well was dispensed in a 96-well plate. After addition of 5 μL of the cell lysates, a five minute denaturation step at 75° C. was performed (table 3B). Afterwards, 7.43 μL of mix B was added (table 3C) and the reverse transcription step was initiated (table 3D) to generate cDNA.
(§4) Finally, a RT-qPCR mix was prepared, mix C (table 4A), dispensed in 96-well LightCycler qPCR plates to which 3 μL of cDNA was added and the qPCR was performed according to the conditions in table 4B on a LightCycler 480. Using the LightCycler software and an in-house LIMS system, dose response curves for each compound were calculated and the half maximal effective concentration (EC50) and the half maximal cytotoxic concentration (CC50) were determined.

DENV-2 strain 16681 = experiment: Tetravalent RT-qPCR assay Protocol A, serotype 2; conditions: RT-qPCR serotype 2 16681
Method: as §1, §2, §3, §4

DENV-3 strain H87 = experiment: Tetravalent RT-qPCR assay Protocol A, serotype 3; conditions: RT-qPCR serotype 3 H87
Method: as §1, §2, §3, §4

DENV-4 strains H241 = experiment: Tetravalent RT-qPCR assay Protocol A, serotype 4; conditions: RT-qPCR serotype 4 H241
Method: as §1, §2, §3, §4

Row | SMILES | SI (DENV-1 strain TC974#666) | SI (DENV-2 strain 16681) | SI (DENV-3 strain H87) | SI (DENV-4 strains H241) | other results
1 | COc1cc(NC(C(=O)c2c[nH]c3cc(Cl)ccc23)c2ccc(F)cc2OC)cc(S(C)(=O)=O)c1 (single isomer, unassigned) [Enantiomer 4A, 1-(6-chloro-1H-indol-3-yl)-2-(4-fluoro-2-methoxyphenyl)-2-((3-methoxy-5-(methylsulfonyl)phenyl)amino)ethanone] | 851 | 12281 | 47 | 24 | SI (DENV-2 16681 strain; listed as 4A*): 8726
2 | COc1cc(NC(C(=O)c2c[nH]c3c(Cl)c(OC)ccc23)c2ccc(F)cc2OC)cc(S(C)(=O)=O)c1 (single isomer, unassigned) [Enantiomer 12A, 1-(7-chloro-6-methoxy-1H-indol-3-yl)-2-(4-fluoro-2-methoxyphenyl)-2-((3-methoxy-5-(methylsulfonyl)phenyl)amino)ethanone] | >870 | >42176 | 76 | >111 | SI (DENV-2 16681 strain; listed as 12A*): >36121
3 | COc1cc(NC(C(=O)c2c[nH]c3ccc(C(F)(F)F)cc23)c2ccc(F)cc2OC)cc(S(C)(=O)=O)c1 (single isomer, unassigned) [Enantiomer 17B, 2-(4-fluoro-2-methoxyphenyl)-2-((3-methoxy-5-(methylsulfonyl)phenyl)amino)-1-(5-(trifluoromethyl)-1H-indol-3-yl)ethanone] | 2960 | 21074 | 272 | 91 | SI (DENV-2 16681 strain; listed as 17B*): >27559
4 | COc1cc(NC(C(=O)c2c[nH]c3cc(OC)c(F)cc23)c2ccc(F)cc2OC)cc(S(C)(=O)=O)c1 (single isomer, unassigned) [Enantiomer 11A, 2-(4-fluoro-2-methoxyphenyl)-1-(5-fluoro-6-methoxy-1H-indol-3-yl)-2-((3-methoxy-5-(methylsulfonyl)phenyl)amino)ethanone] | 402 | 4543 | 52 | 16 | SI (DENV-2 16681 strain; listed as 11A*): 6248
5 | COc1cc(NC(C(=O)c2c[nH]c3cc(F)ccc23)c2ccc(F)cc2OC)cc(S(C)(=O)=O)c1 (single isomer, unassigned) [Enantiomer 1A, 1-(6-fluoro-1H-indol-3-yl)-2-(4-fluoro-2-methoxyphenyl)-2-((3-methoxy-5-(methylsulfonyl)phenyl)amino)ethanone] | 642 | 4303 | 50 | 17 | SI (DENV-2 16681 strain; listed as 1A*): 6654
6 | COc1cc(NC(C(=O)c2c[nH]c3cc(C)c(F)cc23)c2ccc(F)cc2OC)cc(S(C)(=O)=O)c1 (single isomer, unassigned) [Enantiomer 9A, 2-(4-fluoro-2-methoxyphenyl)-1-(5-fluoro-6-methyl-1H-indol-3-yl)-2-((3-methoxy-5-(methylsulfonyl)phenyl)amino)ethanone] | 402 | 4693 | 34 | 14 | SI (DENV-2 16681 strain; listed as 9A*): 4398
7 | COc1cc(NC(C(=O)c2c[nH]c3c(C)cc(F)cc23)c2ccc(F)cc2OC)cc(S(C)(=O)=O)c1 (single isomer, unassigned) [Enantiomer 8A, 2-(4-fluoro-2-methoxyphenyl)-1-(5-fluoro-7-methyl-1H-indol-3-yl)-2-((3-methoxy-5-(methylsulfonyl)phenyl)amino)ethanone] | 644 | 4191 | 48 | 14 | SI (DENV-2 16681 strain; listed as 8A*): 5071
8 | COc1cc(NC(C(=O)c2c[nH]c3cc(OC)c(C)cc23)c2ccc(F)cc2OC)cc(S(C)(=O)=O)c1 (single isomer, unassigned) [Enantiomer 10B, 2-(4-fluoro-2-methoxyphenyl)-2-((3-methoxy-5-(methylsulfonyl)phenyl)amino)-1-(6-methoxy-5-methyl-1H-indol-3-yl)ethanone] | 921 | 6630 | 45 | 26 | SI (DENV-2 16681 strain; listed as 10B*): 6770
9 | COc1cc(NC(C(=O)c2c[nH]c3c(F)cc(C)cc23)c2ccc(F)cc2OC)cc(S(C)(=O)=O)c1 (single isomer, unassigned) [Enantiomer 6A, 2-(4-fluoro-2-methoxyphenyl)-1-(7-fluoro-5-methyl-1H-indol-3-yl)-2-((3-methoxy-5-(methylsulfonyl)phenyl)amino)ethanone] | 476 | 1274 | 43 | 11 | SI (DENV-2 16681 strain; listed as 6A*): 1887
10 | COc1cc(NC(C(=O)c2c[nH]c3c(C)c(F)ccc23)c2ccc(F)cc2OC)cc(S(C)(=O)=O)c1 (single isomer, unassigned) [Enantiomer 2A, 2-(4-fluoro-2-methoxyphenyl)-1-(6-fluoro-7-methyl-1H-indol-3-yl)-2-((3-methoxy-5-(methylsulfonyl)phenyl)amino)ethanone] | 474 | 4858 | 57 | 16 | SI (DENV-2 16681 strain; listed as 2A*): 7834
11 | COc1cc(NC(C(=O)c2c[nH]c3c(C)c(Cl)ccc23)c2ccc(F)cc2OC)cc(S(C)(=O)=O)c1 (single isomer, unassigned) [Enantiomer 3A, 1-(6-chloro-7-methyl-1H-indol-3-yl)-2-(4-fluoro-2-methoxyphenyl)-2-((3-methoxy-5-(methylsulfonyl)phenyl)amino)ethanone] | 545 | 20905 | 52 | 19 | SI (DENV-2 16681 strain; listed as 3A*): 17249
12 | COc1cc(NC(C(=O)c2c[nH]c3cc(F)c(F)cc23)c2ccc(F)cc2OC)cc(S(C)(=O)=O)c1 (single isomer, unassigned) [Enantiomer 7A, 1-(5,6-difluoro-1H-indol-3-yl)-2-(4-fluoro-2-methoxyphenyl)-2-((3-methoxy-5-(methylsulfonyl)phenyl)amino)ethanone] | 904 | 7689 | 48 | 18 | SI (DENV-2 16681 strain; listed as 7A*): 5733
13 | COc1cc(NC(C(=O)c2c[nH]c3ccc(C)cc23)c2ccc(F)cc2OC)cc(S(C)(=O)=O)c1 (single isomer, unassigned) [Enantiomer 15A, 2-(4-fluoro-2-methoxyphenyl)-2-((3-methoxy-5-(methylsulfonyl)phenyl)amino)-1-(5-methyl-1H-indol-3-yl)ethanone] | >712 | 4357 |  | 40 | SI (DENV-2 16681 strain; listed as 15A*): >4057
